Anti-infective test results gathered from many reports (values: NIAID ChemDB through PubChem).

All rows: whole-cell or culture tests; agent: Candida albicans; read-out: MIC

Conditions beyond the fields shown may differ between rows. Blank or dashed fields: not listed here.

structure,strain,result
CC(C)OC(=O)/C=C/c1ccccc1,,0.002 µg/mL
O=C(Nc1ccc([N+](=O)[O-])cc1)c1ccccc1O,ATCC 44859,31.25 µM
OC(Cn1cncn1)(Cn1cncn1)c1ccc(F)cc1F,Clinical isolates,0.904 µg/mL
Cc1[nH]n(CCO)c(=O)c1N=Nc1ccc(-c2n[nH]c(=S)n2-c2ccccc2)cc1,ATCC 2091,62.5 µg/mL
O=c1cc(-c2ccc(C3=NCCN3)cc2)oc2ccc(C3=NCCN3)cc12,ATCC 10231,>50 µg/mL
O=C(/C=C/c1ccccc1)Oc1cccc2cccc(O)c12,,0.003 µg/mL
N=C(N)c1ccc2nc(-c3ccc(-c4cc(=O)c5ccccc5o4)cc3)[nH]c2c1,ATCC 10231,25 µg/mL
Clc1ccc(COC(Cn2ccnc2)c2ccc(Cl)cc2Cl)c(Cl)c1,KULM 83-0030,0.5 µg/mL
CCCCCCCCCCCCCCn1cc[n+](C)c1,,8 µg/mL
Cc1ccc(-c2nn(-c3ccccc3)cc2/C=N/n2c(C)nc3c(sc(=S)n3-c3ccc(C)cc3)c2=O)cc1,,>200 µg/mL
Cc1[nH]n(-c2ccccc2)c(=O)c1N=Nc1ccc(-c2n[nH]c(=S)n2-c2ccccc2)cc1,ATCC 2091,62.5 µg/mL
CCCCCCCCCCCCCC[n+]1c(C(C)O)c[nH]c1C,,125 µg/mL
C=CCn1c(-c2ccc(N=Nc3c(C)[nH]n(-c4ccccc4)c3=O)cc2)n[nH]c1=S,ATCC 2091,62.5 µg/mL
O=C(Nc1ccc(Br)cc1)c1ncccc1S,ATCC 44859,>125 µM
C=CCN1C(=O)CS/C1=N\NC(=O)Cc1csc2nc(-c3ccc(Br)cc3)cn12,ATCC 10231,>32 µg/mL
Cc1ccc(C2=NN(Cc3n[nH]c(=S)n3-c3ccc(Cl)cc3)C(=O)CC2)cc1,,6 µg/mL
CC(C)N=C(N)c1ccc2nc(-c3ccc(-c4cc(=O)c5ccccc5o4)s3)[nH]c2c1,ATCC 10231,12.5 µg/mL
O=C(Nc1cccc([N+](=O)[O-])c1)c1ccccc1O,ATCC 44859,>125 µM
C[C@@H](SC1COC(/C=C/C=C/c2ccc(C#N)cc2F)OC1)[C@](O)(Cn1cncn1)c1ccc(F)cc1F,ATCC64550,0.25 µg/mL
CC(C)NC(=N)c1ccc2nc(-c3ccc(-c4cc(=O)c5cc(-c6nc7ccc(C(=N)NC(C)C)cc7[nH]6)ccc5o4)cc3)[nH]c2c1,ATCC 10231,>50 µg/mL
C[C@@H](N1CCN(c2ccc(-n3cnnn3)cc2)C1=O)[C@](O)(Cn1c[n+](C)cn1)c1ccc(F)cc1F,TA,>16 µg/mL
CN1CCN(Cc2ccccc2NC/C=C/c2ccccc2)CC1,CDC385,100 µg/mL
O=C1CCC(c2ccc(Cl)cc2)=NN1Cc1n[nH]c(=S)n1-c1ccc(Br)cc1,,4 µg/mL
O=C(/C=C/c1ccccc1)N1CCCCC1,,0.002 µg/mL
O=C1CCC(c2ccccc2)=NN1Cc1n[nH]c(=S)n1-c1ccc(Br)cc1,,5 µg/mL
Cc1[nH][nH]c(=O)c1N=Nc1ccc(-c2n[nH]c(=S)o2)cc1,ATCC 2091,62.5 µg/mL
CCCCNC(=S)NNC(=O)Cc1csc2nc(-c3ccc(Br)cc3)cn12,ATCC 10231,>32 µg/mL
Cc1[nH]n(CCO)c(=O)c1N=Nc1ccc(C(=O)N/N=C/c2ccc(F)cc2)cc1,ATCC 2091,500 µg/mL
COc1ccc(NC(=O)c2ncccc2O)cc1,ATCC 44859,250 µM
O=c1ccc(O)cn1CC1=CC=C(CO)SS1,ATCC10259,>100 µg/mL
Cc1ccc(-c2nn(-c3ccccc3)cc2/C=N/n2c(C)nc3c(sc(=S)n3-c3ccccc3)c2=O)cc1,,>200 µg/mL
Cc1c(O)cccc1C(=O)N[C@@H](CSc1ccccc1)[C@H](O)CN1C[C@H]2CCCC[C@H]2C[C@H]1C(=O)NC(C)(C)C,I148A,>64 µg/mL
O=C(Cc1csc2nc(-c3ccc(Br)cc3)cn12)NNC(=S)Nc1ccc(Cl)cc1,ATCC 10231,>32 µg/mL
C=C1CO[C@H]2[C@@H](C)OC(OC[C@@]34C[C@H]5[C@H](C)CC[C@@H]5[C@@]5(C=O)C[C@@H]3C=C(C(C)C)[C@@]45C(=O)O)C[C@@H]12,Isolate 4711E fluconazole-susceptible,<0.01 µg/mL
O=C(Nc1ccc(Cl)c(Cl)c1)c1ccccc1O,ATCC 44859,>125 µM
CCCCCCCCCCSCC(O)C(=O)O,ATCC 60193,0.00104 µM
C[C@@H](N1CCN(c2ccc(-n3cnnn3)cc2)C1=O)[C@](O)(C[n+]1cn(OC(=O)OCCCO)cn1)c1ccc(F)cc1F,TA,0.06 µg/mL
Cc1ccc(-c2nn(-c3ccccc3)cc2/C=N/N=c2\sc3c(=O)[nH]c(=S)[nH]c3n2-c2ccc(C)cc2)cc1,,50 µg/mL
COc1ccc2c(=O)cc(-c3ccc(-c4nc5ccc(C(N)=NC(C)C)cc5[nH]4)cc3)oc2c1,ATCC 10231,12.5 µg/mL
O=C(Nc1ccc(Br)cc1)c1ncccc1O,ATCC 44859,>250 µM
O=C1CCC(c2ccccc2)=NN1Cc1n[nH]c(=S)n1-c1ccc(Cl)cc1,,6 µg/mL
CCCCCOc1ccc(-c2cc(-c3ccc(C(=O)N[C@H]4C[C@@H](O)[C@@H](O)NC(=O)[C@@H]5[C@@H](O)[C@@H](C)CN5C(=O)[C@H]([C@H](O)CC(N)=O)NC(=O)[C@H]([C@H](O)[C@@H](O)c5ccc(O)c(OS(=O)(=O)O)c5)NC(=O)[C@@H]5C[C@@H](O)CN5C(=O)[C@H]([C@@H](C)O)NC4=O)cc3)no2)cc1,FP633,0.0156 µg/mL
Cc1ccc(-c2nn(-c3ccccc3)cc2/C=N/NC2SC(C(N)=O)=C(N)N2c2ccc(C)cc2)cc1,,>200 µg/mL
O=C(Cc1csc2nc(-c3ccc(Br)cc3)cn12)N/N=C1\SCC(=O)N1c1ccccc1,ATCC 10231,>32 µg/mL
COC(=O)c1ccc(C[C@H](C(=O)OC)[C@@H](O)C(=O)OC)cc1,ATCC 10231,2 µg/mL
CC(C)C(=O)On1cn[n+](C[C@](O)(c2ccc(F)cc2F)[C@@H](C)N2CCN(c3ccc(-n4cnnn4)cc3)C2=O)c1,TA,0.016 µg/mL
CN(C)C(=O)/C=C/c1ccccc1,,0.001 µg/mL
C[C@H]1N(C(=O)c2ccc(C(F)(F)F)cc2)C[C@@H](O)O[C@@]1(Cn1cncn1)c1ccc(F)cc1F,Isolate 5,16 µg/mL
C[C@@H](N1CCN(c2ccc(-n3cnnn3)cc2)C1=O)[C@](O)(C[n+]1cn(OC(=O)C(C)(C)C)cn1)c1ccc(F)cc1F,TA,0.5 µg/mL
CC(C)NC(=O)/C=C/c1ccccc1,,0.002 µg/mL
Cc1ccc(-c2nn(-c3ccccc3)cc2/C=N/n2c(=S)[nH]c3c(sc(=S)n3-c3ccc(C)cc3)c2=O)cc1,,100 µg/mL
CN(Cc1cnc2nc(N)nc(N)c2n1)c1ccc(C(=O)N[C@@H](CCC(=O)O)C(=O)O)cc1,ATCC28366,1024 µg/mL

A second listing of 6 rows from above:

structure,strain,result
COc1ccc2c(=O)cc(-c3ccc(-c4nc5ccc(C(N)=NC(C)C)cc5[nH]4)cc3)oc2c1,ATCC 10231,12.5 µg/mL
Cc1ccc(-c2nn(-c3ccccc3)cc2/C=N/n2c(C)nc3c(sc(=S)n3-c3ccccc3)c2=O)cc1,,>200 µg/mL
N=C(N)c1ccc2nc(-c3ccc(-c4cc(=O)c5ccccc5o4)cc3)[nH]c2c1,ATCC 10231,25 µg/mL
CC(C)C(=O)On1cn[n+](C[C@](O)(c2ccc(F)cc2F)[C@@H](C)N2CCN(c3ccc(-n4cnnn4)cc3)C2=O)c1,TA,0.016 µg/mL
CN(Cc1cnc2nc(N)nc(N)c2n1)c1ccc(C(=O)N[C@@H](CCC(=O)O)C(=O)O)cc1,ATCC28366,1024 µg/mL
CCCCCOc1ccc(-c2cc(-c3ccc(C(=O)N[C@H]4C[C@@H](O)[C@@H](O)NC(=O)[C@@H]5[C@@H](O)[C@@H](C)CN5C(=O)[C@H]([C@H](O)CC(N)=O)NC(=O)[C@H]([C@H](O)[C@@H](O)c5ccc(O)c(OS(=O)(=O)O)c5)NC(=O)[C@@H]5C[C@@H](O)CN5C(=O)[C@H]([C@@H](C)O)NC4=O)cc3)no2)cc1,FP633,0.0156 µg/mL